This note sets out measurements from PMC4057808, “Molecular characterization of Clonorchis sinensis secretory myoglobin: Delineating its role in anti-oxidative survival” (Parasites & Vectors, 2014).

The test system of the data set is CCn1c(=NN=c2sc3cc(S(=O)(=O)O)ccc3n2CC)sc2cc(S(=O)(=O)O)ccc21. Description: purified protein. Particulars: H2O2 (0.2 mM in methods, ~20 μM in table note), 50 mM sodium phosphate pH 7.0, 20 °C, ABTS varied 20-300 mM as printed.

“rCsMb (CsMb, Clonorchis sinensis myoglobin) (Clonorchis sinensis; Y68A)”: the Km is listed as 83 mM.
